Data reported in patent publication US8916516B2, “Treatment of fungal and/or protist infections” (AI2 Limited, priority 2005, dated 2014).

Assay: Adherence of fluorescently labelled peptide to surfaces (Example 3)
Conditions: fluorescently tagged GIN1p 40 μM, 15 min

Question: With Ac-LRKLRKRLLLRKLRKRLL-NH2 [MU_10] as the substance, how does the “retention of peptide on contact lens (fluorescence)” value (Acuvue lens, after 4 washes incl. overnight soak in 25 ml PBS) read?
Answer: retains a significant quantity of peptide

Question: What about the “level of fluorescence on glass and PLGA-coated cover slips after washes” value (washes W1-W4 incl. overnight soak) of the same substance?
Answer: did not decrease noticeably
